Anti-infective test results gathered from many reports (values: NIAID ChemDB through PubChem).

All rows: growth or infection tests; species: Mycobacterium avium

Two numbers with a dash give a range or band. A number after MIC or MFC names an inhibition level or a share of isolates. An empty or dashed field is not shown. ECn is the concentration giving n% inhibition of infection, replication or growth. Lines come from different laboratories, so protocols vary.

| smiles | measure | strain | setting | result |
|---|---|---|---|---|
| O=C(Nc1ccc(F)cc1)c1ccc(Cl)cc1OS(=O)(=O)c1ccccc1 | MIC | 330/88 | 21 d | 32 µM |
| NC(=S)c1cc(SCc2ccccc2)ccn1 | MIC | CNCTC MY330/88 | - | 15.85 µM |
| CCCCCCOc1cccc(NC(=O)OC(C)CN2CCCCC2)c1 | MIC | MY330/88 | - | 16 µM |
| Cc1cccc(CSc2ccnc(C#N)c2)c1 | MIC | CNCTC MY330/88 | - | 30.9 µM |
| O=c1oc2ccc(Br)cc2c(=S)n1-c1ccccc1 | MIC | MY330/88 | 14 d | 8 µM |
| CCCN1CCN(c2cc3c(cc2F)c(=O)c(C(=O)O)cn3C2CC2)CC1 | MIC90 | - | - | 8 µg/mL |
| CCCCCOc1cccc(NC(=O)OCCN2CCCCC2)c1 | MIC | MY330/88 | - | 62.5 µM |
| NC(=S)c1cnccn1 | MBC | ATCC 25291 | - | 200 µg/mL |
| FC(F)(F)C(F)(F)C(F)(F)c1nc2c(Br)cc(Br)cc2[nH]1 | MIC | MY330/88 | - | 32 µM |
| O=C(Nc1cccc(N2CCSCC2)c1)c1ccc(Cl)cc1 | MIC | 103317 | - | >16 µg/mL |
| O=[N+]([O-])c1ccc(Sc2nc3c(Br)cc(Br)cc3[nH]2)c([N+](=O)[O-])c1 | MIC | MY330/88 | - | 500 µM |
| Cc1ccc(-n2c(=O)oc3ccc(F)cc3c2=S)cc1 | MIC | MY330/88 | 14 d | 8 µM |
| O=c1[nH]c(=O)n([C@@H]2O[C@H](CO)[C@@H](O)[C@H]2O)cc1O | EC50 | ATCC 25291 | - | >50 µg/mL |
| Cc1cccc(CSc2ccnc(C(N)=S)c2)c1 | MIC | CNCTC MY330/88 | - | 7.94 µM |
| O=C(Nc1ccc(F)cc1)c1cc(Cl)ccc1OS(=O)(=O)c1ccccc1 | MIC | 330/88 | 21 d | 32 µM |
| Cc1cccc(C(N)=Nc2nc(-c3ccccn3)cc3ccccc23)c1 | MIC | SK-28 | - | 2 µg/mL |
| O=[N+]([O-])c1cc(Sc2nc3ccc(Br)cc3[nH]2)cc([N+](=O)[O-])c1 | MIC | MY330/88 | - | 62.5 µM |
| NC(=S)c1cc(SCc2cccc(Cl)c2)ccn1 | MIC | CNCTC MY330/88 | - | 7.94 µM |
| FC(F)(F)C(F)(F)C(F)(F)c1nc2cc(Cl)c(Cl)cc2[nH]1 | MIC | MY330/88 | - | 32 µM |
| Clc1ccc(/C(Cn2ccnc2)=N\OCc2cccc3ccccc23)cc1 | MIC | CIP103317 | - | >16 µg/mL |
| CCCCOc1ccc(NC(=O)OC(C)CN2CCCCC2)cc1 | MIC | MY330/88 | - | 125 µM |
| N/C(=N/N=C/c1cccc(Br)c1)c1ccccn1 | MIC | - | - | 16 µg/mL |
| Clc1ccc(CNc2ccccc2-n2ccnc2)cc1 | MIC | 103317 | - | >16 µg/mL |
| COc1ccc2oc(=S)n(-c3ccc(C(F)(F)F)cc3)c(=S)c2c1 | MIC | MY330/88 | 21 d | 125 µM |
| CC(C)(C)OCOC(=O)c1cnccn1 | MBC | ATCC 25291 | - | 200 µg/mL |
| CC(=O)O[C@H]1C[C@H](n2cc(C(F)CCl)c(=O)[nH]c2=O)O[C@@H]1CO | EC90 | ATCC 25291 | - | 1–5 µg/mL |
| O=C(Nc1cccc(C(F)(F)F)c1)c1cc(Cl)ccc1OS(=O)(=O)c1ccccc1 | MIC | 330/88 | 21 d | 62.5 µM |
| FC(F)(F)c1ccc(-n2c(=S)oc3ccc(Cl)cc3c2=S)cc1 | MIC | MY330/88 | 21 d | 62.5 µM |
| Fc1ccc(/C(Cn2ccnc2)=N\OC/C=C/c2ccccc2)cc1 | MIC | CIP103317 | - | 4 µg/mL |
| O=C(Nc1ccccc1N1CCSCC1)c1ccc(Cl)cc1 | MIC | 103317 | - | >16 µg/mL |
| CC(=O)OC[C@H]1O[C@@H](n2cc(/C=C/I)c(=O)[nH]c2=O)C[C@@H]1OC(C)=O | EC50 | ATCC 25291 | - | >50 µg/mL |
| Clc1ccc(/C(Cn2ccnc2)=N/OCc2ccccc2)c(Cl)c1 | MIC | CIP103317 | - | 8 µg/mL |
| O=[N+]([O-])c1ccc(Sc2nc3c(Br)c(Br)c(Br)c(Br)c3[nH]2)c([N+](=O)[O-])c1 | MIC | MY330/88 | - | 62.5 µM |
| Clc1ccc(/C(Cn2ccnc2)=N/OCc2cccc3ccccc23)cc1 | MIC | CIP103317 | - | >16 µg/mL |
| O=C(Nc1cccc(C(F)(F)F)c1)c1ccc(Cl)cc1OS(=O)(=O)c1ccccc1 | MIC | 330/88 | 14 d | 125 µM |
| O=c1oc2ccc(F)cc2c(=S)n1-c1ccc(Br)cc1 | MIC | MY330/88 | 21 d | 8 µM |
| CCCCCCOc1ccccc1NC(=O)OCCN1CCCCC1 | MIC | MY330/88 | - | 62.5 µM |
| NC(=S)c1cc(SCc2ccc([N+](=O)[O-])cc2[N+](=O)[O-])ccn1 | MIC | CNCTC MY330/88 | - | 15.85 µM |
| N/C(=N/N=C/c1ccccc1)c1ccccn1 | MIC | - | - | 32 µg/mL |
| O=C(Nc1ccc(Cl)cc1)c1ccc(Cl)cc1OS(=O)(=O)c1ccccc1 | MIC | 330/88 | 14 d | 8 µM |
| Cc1ccc(-n2c(=S)oc3ccc(Br)cc3c2=S)cc1 | MIC | MY330/88 | 14 d | 16 µM |
| NNC(=O)c1ccncc1 | MBC | 1854-4 | - | 80 µg/mL |
| N#Cc1cc(SCc2ccc([N+](=O)[O-])cc2[N+](=O)[O-])ccn1 | MIC | CNCTC MY330/88 | - | 30.9 µM |
| Cc1ccc2oc(=O)n(-c3ccc(F)cc3)c(=S)c2c1 | MIC | MY330/88 | 14 d | 4 µM |
| FC(F)(F)c1nc2cc(Cl)c(Cl)cc2[nH]1 | MIC | MY330/88 | - | 32 µM |
| CC(C)N=c1cc2n(-c3ccc(Cl)cc3)c3ccccc3nc-2cc1Nc1ccc(Cl)cc1 | MIC | 1389 | - | 3.3 µg/mL |
| N/C(=N\N=C\c1ccc(Cl)c([N+](=O)[O-])c1)c1ccccn1 | MIC | - | - | >256 µg/mL |
| O=C(O)c1cn(C2CC2)c2cc(N3CCN(Cc4ccccc4)CC3)c(F)cc2c1=O | MIC90 | - | - | >16 µg/mL |
| Cc1ccc(C)c(/C=N/N=C(\N)c2ccccn2)c1 | MIC | - | - | 256 µg/mL |
| O=c1[nH]c(=O)n([C@@H]2O[C@H](CO)[C@@H](O)[C@H]2F)cc1/C=C/I | EC50 | ATCC 25291 | - | >50 µg/mL |
| CN1CCN(c2ccccc2NCc2ccc(Cl)cc2)CC1 | MIC | 103317 | - | >16 µg/mL |
| CC(C)N=C(N)/N=C(\N)NOCCCOc1ccc(Cl)c(Cl)c1 | MIC | 101 | - | 1.95 µg/mL |
| O=c1oc2ccc(F)cc2c(=S)n1-c1cccc(Cl)c1 | MIC | MY330/88 | 21 d | 8 µM |
| N/C(=N/N=C/c1ccc(Br)cc1)c1ccccn1 | MIC | - | - | 128 µg/mL |

Repeating the first 4 entries:

{"smiles": "O=C(Nc1ccc(F)cc1)c1ccc(Cl)cc1OS(=O)(=O)c1ccccc1", "measure": "MIC", "strain": "330/88", "setting": "21 d", "result": "32 µM"}
{"smiles": "NC(=S)c1cc(SCc2ccccc2)ccn1", "measure": "MIC", "strain": "CNCTC MY330/88", "result": "15.85 µM"}
{"smiles": "CCCCCCOc1cccc(NC(=O)OC(C)CN2CCCCC2)c1", "measure": "MIC", "strain": "MY330/88", "result": "16 µM"}
{"smiles": "Cc1cccc(CSc2ccnc(C#N)c2)c1", "measure": "MIC", "strain": "CNCTC MY330/88", "result": "30.9 µM"}